{"source": "BindingDB's records for doi:10.1002/cmdc.202100576", "about": "(Experimental Drug Development Centre, 2021)", "target": "Replicase polyprotein 1ab (Severe acute respiratory syndrome coronavirus, UniProt P0C6X7)", "test": "Various Assay"}
{"smiles": "O=c1c(OC2O[C@H](CO)[C@H](O)[C@@H](O)[C@H]2O)c(-c2ccc(O)c(O)c2)oc2cc(O)cc(O)c12", "note": "(some centres not stated) [cmdc.202100576, 12d]", "values": [{"measurement": "IC50", "value": 49.7, "unit": "µM"}]}
{"smiles": "O=c1c(O[C@@H]2O[C@H](CO)[C@H](O)[C@H](O)[C@H]2O)c(-c2ccc(O)c(O)c2)oc2cc(O)cc(O)c12", "note": "[jm5b01461, Compound 84]", "values": [{"measurement": "IC50", "value": 50.5, "unit": "µM"}]}
